A mixed list of measured activities; the numbers were collected in NIAID ChemDB.

All rows: host cell toxicity; cell line: A549; read-out: CC50

CCn is the concentration with n% toxicity to the cells. Neighbouring rows are from separate reports.

C1=C(c2nc(-c3ccccc3)no2)c2ccccc2OC12CCN(CC1CCCO1)CC2 ; read by: resazurin ; result: 5 µM
CC(=O)c1cc([N+](=O)[O-])c(N2CC(C)CC(C)C2)s1 ; read by: resazurin ; result: 29 µg/mL
CCOC(=O)n1[se]c2ccccc2c1=O ; read by: visual reading ; result: 17 µg/mL
O=C(O)C[C@@H]1C(=O)O[C@H]2[C@@H]3OC(=O)c4cc(O)c(O)c(O)c4-c4c(cc(O)c(O)c4O)C(=O)OC[C@H]2O[C@@H](OC(=O)c2cc(O)c(O)c(O)c2)[C@@H]3OC(=O)c2cc(O)c(O)c3c2[C@H]1[C@H](O)C(=O)O3 ; read by: XTT ; result: 317 µM
O=C(Nc1ccccc1)n1[se]c2ccccc2c1=O ; read by: visual reading ; result: 58.5 µg/mL
CO[C@H]1/C=C/O[C@@]2(C)Oc3c(C)c(O)c4c(O)c(c(/C=N/N5CCN(C)CC5)c(O)c4c3C2=O)NC(=O)/C(C)=C\C=C\[C@H](C)[C@H](O)[C@@H](C)[C@@H](O)[C@@H](C)[C@H](OC(C)=O)[C@@H]1C ; read by: MTT ; result: >100 µg/mL
O=c1c2ccccc2[se]n1-c1ccccn1 ; result: 120 µg/mL
COc1cc([C@@H]2c3cc4c(cc3[C@H](OC(C)=O)[C@@H]3COC(=O)[C@@H]23)OCO4)cc2nccnc12 ; result: 0.56 µM
CCCCCCCCCCCCCCCCOP(=O)([O-])OCC[N+](C)(C)Cc1ccccc1 ; read by: MTT ; result: 73.2 µM
O=S(=O)(Nc1ccccc1[Se][Se]c1ccccc1NS(=O)(=O)c1ccccc1)c1ccccc1 ; read by: MTT ; result: 30 µg/mL
CCCCCCCCCCCCCCCCOP(=O)([O-])OCCC[n+]1ccccc1 ; read by: MTT ; result: 61.6 µM
COC(=O)[C@H]1[C@@H]2CON=C2c2cc3c(cc2[C@H]1C1=CC(=O)C(=O)C(OC)=C1)OCO3 ; result: 12 µM
Cc1ccc(S(=O)(=O)Nc2ccccc2[Se][Se]c2ccccc2NS(=O)(=O)c2ccc(C)cc2)cc1 ; read by: MTT ; result: 10 µg/mL
NC(=NC1CC1)c1ccc(N2CCN(c3ccc(C(N)=NC4CC4)cc3)CC2)cc1 ; result: >60.2 µg/mL
O=C1N(CC2CC2)c2ccccc2C12CCN(CC1CCCO1)CC2 ; read by: resazurin ; result: >50 µM
Nc1ncnc2c1ncn2[C@@H]1C[C@@H](O)[C@H](CO)O1 ; result: >100 µM
CC(C)(C)c1ccc(CN2CCC3(CC2)C(=O)Nc2ccccc23)cc1 ; read by: resazurin ; result: >50 µM
COc1cc([C@@H]2c3cc4c(cc3[C@H](OC(C)=O)[C@@H]3COC(=O)[C@@H]23)OCO4)cc2nc3ccccc3nc12 ; result: 1 µM
CC1Oc2cc(O)c3c(=O)c4ccc(O)c(O)c4oc3c2C1(C)C ; read by: sulforhodamine / absorbance ; result: 6.43 µM
COc1ccc(-c2noc(C3=CC4(CCN(CC(N)=O)CC4)c4ccccc43)n2)cc1 ; read by: resazurin ; result: 60.5 µM
Nc1ccn(C[C@@H](CO)OCP(=O)(O)O)c(=O)n1 ; result: 632 µM
CN=C(N)c1ccc(N2CCN(c3ccc(C(N)=NC)cc3)CC2)cc1 ; result: >100 µg/mL
COc1cc([C@@H]2c3cc4c(cc3[C@H](OC(C)=O)[C@@H]3COC(=O)[C@@H]23)OCO4)cc(O)c1O ; result: 5.84 µM
O=C(NC1CCCCC1)n1[se]c2ccccc2c1=O ; read by: visual reading ; result: 34 µg/mL
COC1=CC([C@@H]2c3cc4c(cc3[C@H](O)[C@@H]3COC(=O)[C@H]32)OCO4)=CC(=O)C1=O ; result: 1.3 µM
CC(C)=CC[C@H]1C[C@@]2(C[C@H]3CCC(C)(C)C=C3C)C(=O)[C@](C(=O)c3ccccc3)(C(=O)C3=C2OC(C)(C)C=C3)C1(C)C ; read by: sulforhodamine / absorbance ; result: >50 µM
CCCCCCCCCCCCCCCCOP(=O)([O-])OCCC[N+](C)(C)C ; read by: MTT ; result: 41.5 µM
NC(=O)c1nc(F)c[nH]c1=O ; result: >1000 µg/mL
Fc1ccc(-c2nc(SCCCCBr)n[nH]2)cc1 ; read by: MTT ; result: >100 µg/mL
O=C1OCC2OC(O)C(O)C(O)C2OC(=O)c2cc(O)c(O)c(O)c2-c2c(O)c(O)c3oc(=O)c4c(c(O)c(O)c5oc(=O)c2c3c54)-c2c1cc(O)c(O)c2O ; read by: XTT ; result: 311 µM
O=c1c2ccccc2[se]n1CCO ; read by: visual reading ; result: 4 µg/mL
CC1CCCN(c2ccc([N+](=O)[O-])s2)C1 ; read by: resazurin ; result: >20 µg/mL
CCC(O)CN1CCC2(C=C(c3nc(-c4ccc(OC)cc4)no3)c3ccccc32)CC1 ; read by: resazurin ; result: 19 µM
CC1CC(C)CN(c2ccc([N+](=O)[O-])s2)C1 ; read by: resazurin ; result: 84 µg/mL
CCCN=C(N)c1ccc(N2CCN(c3ccc(C(N)=NCCC)cc3)CC2)cc1 ; result: 1070 µg/mL
COc1ccc(-c2noc(C3=CC4(CCN(CC(=O)O)CC4)c4ccccc43)n2)cc1 ; read by: resazurin ; result: >100 µM
Cc1cccnc1-n1[se]c2ccccc2c1=O ; result: 230 µg/mL
NS(=O)(=O)c1ccc(NC(=O)c2ccccc2[Se][Se]c2ccccc2C(=O)Nc2ccc(S(N)(=O)=O)cc2)cc1 ; read by: MTT ; result: 60 µg/mL
Fc1ccc(-c2nc(SCC3CC3)n[nH]2)cc1 ; read by: MTT ; result: >100 µg/mL
Nc1ncnc2c1ncn2[C@@H]1C[C@@H](O)[C@H](CO)O1 ; result: >100 µM
Nc1ccc(-c2nc(=S)[nH][nH]2)cc1 ; read by: MTT ; result: >100 µg/mL
O=c1c2cccnc2[se]n1-c1ccc(Cl)cc1 ; result: 50 µg/mL
CC1CC(C)CN(c2sc([N+](=O)[O-])cc2[N+](=O)[O-])C1 ; read by: resazurin ; result: 75 µg/mL
CC(C)=CC[C@H]1C[C@@]2(C[C@H]3CCC(C)(C)C=C3C)C(=O)[C@](C(=O)c3ccccc3)(C(=O)C3=C2OC(C)(C)CC3)C1(C)C ; read by: sulforhodamine / absorbance ; result: >50 µM
Cc1cc(NS(=O)(=O)c2ccc(N3C(=O)CSC3c3c(F)cccc3F)cc2)no1 ; read by: MTT ; result: >100 µg/mL
CCCCCCCCCCCCCCCCOP(=O)([O-])OCC[n+]1ccccc1 ; read by: MTT ; result: 9.9 µM
Cc1cc(NS(=O)(=O)c2ccc(N3C(=O)CSC3c3c(Cl)cccc3Cl)cc2)no1 ; read by: MTT ; result: >100 µg/mL
O=c1c2ccccc2[se]n1-c1ccccc1 ; result: 15 µg/mL
COc1ccc(-c2cc(OC)c(O)c(OC)c2O)cc1 ; read by: sulforhodamine / absorbance ; result: >50 µM
C#CNc1c2c(c(-c3ccc4c(c3)OCO4)c3cc(OC)c(OC)cc13)C(=O)OC2 ; read by: absorbance ; result: 1.581 µM
C[C@H]1[C@H](O)C(=O)CC2[C@]3(C)CC[C@@]4(C)C5CC(C)(C)CC[C@]5(C)CC[C@]4(C)C3CC[C@@]21C ; read by: sulforhodamine / absorbance ; result: >50 µM
COc1ccc(-c2noc(C3=CC4(CCN(CC(=O)N(C)C)CC4)c4ccccc43)n2)cc1 ; read by: resazurin ; result: 12 µM